Test results published in article PMC9104152, “Phosphoproteomics Unravel HBV Triggered Rewiring of Host Phosphosignaling Events” (International Journal of Molecular Sciences, 2022).
Several values for one entry are separate records, joined by “and”; a condition that tells them apart may be missing. Equal values may be shown once.

System: HepG2-NTCP cells
Experiment: TMT-based phosphoproteome profiling of HBV-infected vs mock HepG2-NTCP (HBV/mock ratio)
Set-up: species or system human
Conditions: HBV-infected vs mock HepG2-NTCP, sheet Up-regulated
[1] = phosphosite abundance ratio of host protein, 7dpi
[2] = phosphosites of host proteins deregulated at 7dpi

## O00264 1xPhospho [O00264 1xPhospho [S57(100)]]
[1]
  HBV/mock: 1.735

## O00264 1xPhospho [O00264 1xPhospho [S181(100)]]
[1]
  HBV/mock: 1.467

## O14646 2xPhospho [O14646 2xPhospho [S215(100); S216(100)]]
[1]
  HBV/mock: 1.37

## O43166 1xPhospho [O43166 1xPhospho [S]]
[1]
  HBV/mock: 1.315

## O43823 1xPhospho [O43823 1xPhospho [S328(100)]]
[1]
  HBV/mock: 1.353

## O75376 1xPhospho [O75376 1xPhospho [S2120(100)]]
[1]
  HBV/mock: 1.341

## O75691 1xPhospho [O75691 1xPhospho [S2601(100)]]
[2]
  HBV/mock: 1.379

## O95071 1xPhospho [O95071 1xPhospho [S1549(99.7)]]
[2]
  HBV/mock: 1.402

## O95602 1xPhospho [O95602 1xPhospho [Y/S]]
[1]
  HBV/mock: 1.46

## P01308
[1]
  HBV/mock: 2.057

## P04114 1xPhospho [P04114 1xPhospho [S4048(100)]]
[1]
  HBV/mock: 6.399

## P04406 1xPhospho [P04406 1xPhospho [S/T]]
[1]
  HBV/mock: 1.4302

## P05067 1xPhospho [P05067 1xPhospho [S441(100)]]
[1]
  HBV/mock: 1.361

## P08238 1xPhospho [P08238 1xPhospho [S226(100)]]
[1]
  HBV/mock: 1.609 and 1.38

## P13861 1xPhospho [P13861 1xPhospho [S]]
[1]
  HBV/mock: 1.586 and 1.431

## P17252 1xPhospho [P17252 1xPhospho [T/Y]]
[1]
  HBV/mock: 1.712

## P28066 1xPhospho [P28066 1xPhospho [T/S]]
[1]
  HBV/mock: 1.835

## P41227 2xPhospho [P41227 2xPhospho [S205(100); S209(100)]]
[1]
  HBV/mock: 1.373

## P42356 1xPhospho [P42356 1xPhospho [S/T]]
[1]
  HBV/mock: 1.303

## P43686
[1]
  HBV/mock: 1.3097

## P46100 1xPhospho [P46100 1xPhospho [S213(100)]]
[1]
  HBV/mock: 1.313

## P46100 2xPhospho [S675(99.4); S677(99.4)]
[1]
  HBV/mock: 1.381

## P48634 1xPhospho [P48634 1xPhospho [S1386(99.6)]]
[1]
  HBV/mock: 1.386

## P48643
[1]
  HBV/mock: 1.364 and 1.351

## P49327 1xPhospho [P49327 1xPhospho [S207(100)]]
[1]
  HBV/mock: 1.378

## P49327 1xPhospho [P49327 1xPhospho [S1411(99.4)]]
[1]
  HBV/mock: 1.435

## P49327 1xPhospho [P49327 1xPhospho [S/T/Y]]
[1]
  HBV/mock: 1.421

## P49327 1xPhospho [P49327 1xPhospho [T2204(100)]]
[1]
  HBV/mock: 1.711

## P49327 2xPhospho [S2198(100); T2204(100)]
[1]
  HBV/mock: 1.622

## P51812 1xPhospho [P51812 1xPhospho [S415(100)]]
[1]
  HBV/mock: 5.685

## P52701 1xPhospho [P52701 1xPhospho [S137(99.8)]]
[1]
  HBV/mock: 1.441

## P52701 1xPhospho [P52701 1xPhospho [S227(100)]]
[1]
  HBV/mock: 1.866

## P52756 1xPhospho [P52756 1xPhospho [S59(100)]]
[1]
  HBV/mock: 1.382

## P55010 1xPhospho [P55010 1xPhospho [S229(99.7)]]
[1]
  HBV/mock: 1.357

## P55010 1xPhospho [P55010 1xPhospho [S/Y]]
[1]
  HBV/mock: 1.897

## P57682 1xPhospho [P57682 1xPhospho [Y/S]]
[1]
  HBV/mock: 1.333

## P60174 1xPhospho [P60174 1xPhospho [S58(100)]]
[2]
  HBV/mock: 1.517

## P68363 1xPhospho [P68363 1xPhospho [S439(100)]]
[2]
  HBV/mock: 1.721

## P78527 1xPhospho [P78527 1xPhospho [S2612(98.3)]]
[1]
  HBV/mock: 1.382

## Q2KHR3 2xPhospho [T1341(100); S1348(100)]
[1]
  HBV/mock: 1.469

## Q2PPJ7 2xPhospho [Q2PPJ7 2xPhospho [S820(99.8); S821(100)]]
[1]
  HBV/mock: 1.3586

## Q5SYE7 1xPhospho [Q5SYE7 1xPhospho [S328(100)]]
[1]
  HBV/mock: 1.338

## Q5T200 3xPhospho [S316(100); S325(99.4); T/S]
[2]
  HBV/mock: 1.364

## Q5UIP0 1xPhospho [Q5UIP0 1xPhospho [S2393(100)]]
[1]
  HBV/mock: 1.446

## Q5VTR2 1xPhospho [Q5VTR2 1xPhospho [S138(100)]]
[1]
  HBV/mock: 1.402

## Q7Z5L9 3xPhospho [S455(100); S457(100); S460(100)]
[1]
  HBV/mock: 1.3947

## Q7Z6Z7 1xPhospho [Q7Z6Z7 1xPhospho [S3919(100)]]
[1]
  HBV/mock: 1.407

## Q7Z6Z7 1xPhospho [Q7Z6Z7 1xPhospho [T/S]]
[1]
  HBV/mock: 1.32

## Q7Z6Z7 2xPhospho [T3924(100); T3927(100)]
[1]
  HBV/mock: 1.978

## Q8IWU5 1xPhospho [Q8IWU5 1xPhospho [S838(99.8)]]
[2]
  HBV/mock: 1.316

## Q8NBP7 1xPhospho [Q8NBP7 1xPhospho [S688(100)]]
[1]
  HBV/mock: 8.489

## Q8NDI1 1xPhospho [Q8NDI1 1xPhospho [S171(99.6)]]
[1]
  HBV/mock: 1.416

## Q8NFA0 2xPhospho [S1361(99.5); S1372(100)]
[2]
  HBV/mock: 1.406

## Q9BXY0 2xPhospho [Q9BXY0 2xPhospho [S229(100); S232(100)]]
[1]
  HBV/mock: 1.4

## Q9C0C9 1xPhospho [Q9C0C9 1xPhospho [S515(100)]]
[2]
  HBV/mock: 1.711

## Q9C0C9 2xPhospho [Q9C0C9 2xPhospho [S87(100); S89(100)]]
[2]
  HBV/mock: 1.359

## Q9H4Z3 1xPhospho [Q9H4Z3 1xPhospho [S/T]]
[1]
  HBV/mock: 1.494

## Q9HCK8 1xPhospho [Q9HCK8 1xPhospho [S/T]]
[1]
  HBV/mock: 1.405

## Q9UBS3 1xPhospho [Q9UBS3 1xPhospho [S]]
[1]
  HBV/mock: 5.911

## Q9UQ35 1xPhospho [Q9UQ35 1xPhospho [S954(100)]]
[2]
  HBV/mock: 1.349

## Q9Y4B6 1xPhospho [Q9Y4B6 1xPhospho [S/T/Y]]
[1]
  HBV/mock: 1.327

## Q9Y5B9 1xPhospho [Q9Y5B9 1xPhospho [S982(100)]]
[2]
  HBV/mock: 9.901

## Q9Y6D5 1xPhospho [Q9Y6D5 1xPhospho [S277(99.8)]]
[1]
  HBV/mock: 1.425

## Q9Y6D5 2xPhospho [Q9Y6D5 2xPhospho [S]]
[1]
  HBV/mock: 1.424

## Q9Y6G9 1xPhospho [Q9Y6G9 1xPhospho [S207(100)]]
[1]
  HBV/mock: 1.659 and 1.617

## Q9Y6G9 2xPhospho [T513(99.6); S516(99.2)]
[1]
  HBV/mock: 2.111

## Q9Y6R4 1xPhospho [Q9Y6R4 1xPhospho [S431(100)]]
[1]
  HBV/mock: 1.335

## Q27J81 2xPhospho [T20(98.7)
[1]
  HBV/mock: 1.602

## Q58FF8 1xPhospho [Q58FF8 1xPhospho [S177(100)]]
[1]
  HBV/mock: 1.388

## Q70CQ2 1xPhospho [Q70CQ2 1xPhospho [S2488(99.3)]]
[2]
  HBV/mock: 1.556

## Q96JG6 2xPhospho [S559(99.7); S561(99.7)]
[2]
  HBV/mock: 1.314

## Q96QB1 1xPhospho [Q96QB1 1xPhospho [S566(100)]]
[1]
  HBV/mock: 1.303

## Q96QB1 2xPhospho [Q96QB1 2xPhospho [S523(100); S526(100)]]
[1]
  HBV/mock: 1.333

## Q02952 1xPhospho [Q02952 1xPhospho [S483(100)]]
[1]
  HBV/mock: 1.339

## Q12789 1xPhospho [Q12789 1xPhospho [S1611(100)]]
[1]
  HBV/mock: 1.408

## Q13107 2xPhospho [Q13107 2xPhospho [S675(99.6); S680(100)]]
[2]
  HBV/mock: 1.452

## Q13144 1xPhospho [Q13144 1xPhospho [S544(100)]]
[1]
  HBV/mock: 1.374

## Q13283 2xPhospho [Q13283 2xPhospho [S/T]]
[1]
  HBV/mock: 1.42

## Q13547 2xPhospho [Q13547 2xPhospho [S421(100); S423(100)]]
[1]
  HBV/mock: 1.512

## Q13576 1xPhospho [Q13576 1xPhospho [S16(100)]]
[1]
  HBV/mock: 1.714

## Q14568 1xPhospho [Q14568 1xPhospho [S263(100)]]
[1]
  HBV/mock: 8.103

## Q16513 1xPhospho [Q16513 1xPhospho [T/S/Y]]
[1]
  HBV/mock: 4.943

## Q16659 1xPhospho [Q16659 1xPhospho [S189(100)]]
[1]
  HBV/mock: 1.36

## Q92614 1xPhospho [Q92614 1xPhospho [S]]
[1]
  HBV/mock: 1.344

## Q93008 1xPhospho [Q93008 1xPhospho [S1600(100)]]
[2]
  HBV/mock: 1.405

## Q93008 2xPhospho [S1593(99.7); S1600(100)]
[2]
  HBV/mock: 1.301

## Q99638 1xPhospho [Q99638 1xPhospho [S328(100)]]
[1]
  HBV/mock: 1.667
